Sequences of proteins named here, by UniProt entry; tags and fusion partners are left off.
UniProt Q99250, whole entry, looked up: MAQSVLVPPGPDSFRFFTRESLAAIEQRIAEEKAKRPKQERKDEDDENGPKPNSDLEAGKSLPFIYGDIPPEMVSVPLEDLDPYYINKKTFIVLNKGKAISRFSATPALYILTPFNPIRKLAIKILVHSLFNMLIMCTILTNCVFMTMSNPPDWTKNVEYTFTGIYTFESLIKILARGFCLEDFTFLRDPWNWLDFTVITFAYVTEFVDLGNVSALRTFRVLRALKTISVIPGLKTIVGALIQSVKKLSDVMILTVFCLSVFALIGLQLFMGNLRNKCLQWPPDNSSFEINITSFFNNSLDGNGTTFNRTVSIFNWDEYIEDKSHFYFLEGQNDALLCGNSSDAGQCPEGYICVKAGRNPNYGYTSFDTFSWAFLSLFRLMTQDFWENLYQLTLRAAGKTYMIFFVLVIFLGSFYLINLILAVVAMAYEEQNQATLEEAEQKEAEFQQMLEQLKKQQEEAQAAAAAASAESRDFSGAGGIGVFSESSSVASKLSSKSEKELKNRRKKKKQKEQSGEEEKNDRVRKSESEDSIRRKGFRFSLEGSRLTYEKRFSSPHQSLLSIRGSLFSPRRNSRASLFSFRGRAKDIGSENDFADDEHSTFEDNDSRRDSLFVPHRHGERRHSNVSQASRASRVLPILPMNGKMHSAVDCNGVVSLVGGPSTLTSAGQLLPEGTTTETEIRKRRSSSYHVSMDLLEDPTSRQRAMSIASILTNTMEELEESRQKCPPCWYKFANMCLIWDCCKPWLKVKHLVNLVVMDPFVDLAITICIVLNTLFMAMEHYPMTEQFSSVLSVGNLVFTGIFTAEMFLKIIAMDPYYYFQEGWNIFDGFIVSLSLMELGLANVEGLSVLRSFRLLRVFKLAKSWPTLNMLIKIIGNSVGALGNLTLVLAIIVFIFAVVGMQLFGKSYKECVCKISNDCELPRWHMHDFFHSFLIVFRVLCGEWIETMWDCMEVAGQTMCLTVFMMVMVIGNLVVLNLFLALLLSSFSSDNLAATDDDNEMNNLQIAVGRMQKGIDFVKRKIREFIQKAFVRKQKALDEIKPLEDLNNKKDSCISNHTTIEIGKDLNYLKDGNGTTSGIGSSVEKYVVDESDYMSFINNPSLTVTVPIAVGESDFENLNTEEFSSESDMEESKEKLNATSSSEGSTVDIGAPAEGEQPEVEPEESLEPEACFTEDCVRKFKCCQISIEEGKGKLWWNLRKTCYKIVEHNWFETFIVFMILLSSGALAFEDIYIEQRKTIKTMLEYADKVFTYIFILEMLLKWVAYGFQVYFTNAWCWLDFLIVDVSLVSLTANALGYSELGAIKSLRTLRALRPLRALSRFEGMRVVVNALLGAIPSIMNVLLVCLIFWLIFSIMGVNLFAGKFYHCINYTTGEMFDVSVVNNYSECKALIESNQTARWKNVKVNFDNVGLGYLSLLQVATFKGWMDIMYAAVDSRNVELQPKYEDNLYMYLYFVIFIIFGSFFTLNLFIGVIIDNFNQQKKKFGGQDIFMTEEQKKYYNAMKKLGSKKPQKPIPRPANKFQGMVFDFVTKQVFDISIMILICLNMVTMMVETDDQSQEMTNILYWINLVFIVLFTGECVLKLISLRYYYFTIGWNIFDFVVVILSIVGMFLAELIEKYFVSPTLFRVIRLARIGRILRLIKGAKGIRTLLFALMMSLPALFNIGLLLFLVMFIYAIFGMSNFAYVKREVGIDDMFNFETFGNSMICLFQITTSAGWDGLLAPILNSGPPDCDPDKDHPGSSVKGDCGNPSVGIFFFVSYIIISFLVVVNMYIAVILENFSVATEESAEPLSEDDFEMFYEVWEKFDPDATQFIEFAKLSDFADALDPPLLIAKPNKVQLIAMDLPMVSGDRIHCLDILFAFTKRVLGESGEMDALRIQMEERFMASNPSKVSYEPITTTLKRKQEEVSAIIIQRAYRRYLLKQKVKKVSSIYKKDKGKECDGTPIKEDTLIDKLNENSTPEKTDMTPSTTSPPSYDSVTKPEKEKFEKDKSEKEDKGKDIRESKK
UniProt Q9NY46, whole entry, looked up: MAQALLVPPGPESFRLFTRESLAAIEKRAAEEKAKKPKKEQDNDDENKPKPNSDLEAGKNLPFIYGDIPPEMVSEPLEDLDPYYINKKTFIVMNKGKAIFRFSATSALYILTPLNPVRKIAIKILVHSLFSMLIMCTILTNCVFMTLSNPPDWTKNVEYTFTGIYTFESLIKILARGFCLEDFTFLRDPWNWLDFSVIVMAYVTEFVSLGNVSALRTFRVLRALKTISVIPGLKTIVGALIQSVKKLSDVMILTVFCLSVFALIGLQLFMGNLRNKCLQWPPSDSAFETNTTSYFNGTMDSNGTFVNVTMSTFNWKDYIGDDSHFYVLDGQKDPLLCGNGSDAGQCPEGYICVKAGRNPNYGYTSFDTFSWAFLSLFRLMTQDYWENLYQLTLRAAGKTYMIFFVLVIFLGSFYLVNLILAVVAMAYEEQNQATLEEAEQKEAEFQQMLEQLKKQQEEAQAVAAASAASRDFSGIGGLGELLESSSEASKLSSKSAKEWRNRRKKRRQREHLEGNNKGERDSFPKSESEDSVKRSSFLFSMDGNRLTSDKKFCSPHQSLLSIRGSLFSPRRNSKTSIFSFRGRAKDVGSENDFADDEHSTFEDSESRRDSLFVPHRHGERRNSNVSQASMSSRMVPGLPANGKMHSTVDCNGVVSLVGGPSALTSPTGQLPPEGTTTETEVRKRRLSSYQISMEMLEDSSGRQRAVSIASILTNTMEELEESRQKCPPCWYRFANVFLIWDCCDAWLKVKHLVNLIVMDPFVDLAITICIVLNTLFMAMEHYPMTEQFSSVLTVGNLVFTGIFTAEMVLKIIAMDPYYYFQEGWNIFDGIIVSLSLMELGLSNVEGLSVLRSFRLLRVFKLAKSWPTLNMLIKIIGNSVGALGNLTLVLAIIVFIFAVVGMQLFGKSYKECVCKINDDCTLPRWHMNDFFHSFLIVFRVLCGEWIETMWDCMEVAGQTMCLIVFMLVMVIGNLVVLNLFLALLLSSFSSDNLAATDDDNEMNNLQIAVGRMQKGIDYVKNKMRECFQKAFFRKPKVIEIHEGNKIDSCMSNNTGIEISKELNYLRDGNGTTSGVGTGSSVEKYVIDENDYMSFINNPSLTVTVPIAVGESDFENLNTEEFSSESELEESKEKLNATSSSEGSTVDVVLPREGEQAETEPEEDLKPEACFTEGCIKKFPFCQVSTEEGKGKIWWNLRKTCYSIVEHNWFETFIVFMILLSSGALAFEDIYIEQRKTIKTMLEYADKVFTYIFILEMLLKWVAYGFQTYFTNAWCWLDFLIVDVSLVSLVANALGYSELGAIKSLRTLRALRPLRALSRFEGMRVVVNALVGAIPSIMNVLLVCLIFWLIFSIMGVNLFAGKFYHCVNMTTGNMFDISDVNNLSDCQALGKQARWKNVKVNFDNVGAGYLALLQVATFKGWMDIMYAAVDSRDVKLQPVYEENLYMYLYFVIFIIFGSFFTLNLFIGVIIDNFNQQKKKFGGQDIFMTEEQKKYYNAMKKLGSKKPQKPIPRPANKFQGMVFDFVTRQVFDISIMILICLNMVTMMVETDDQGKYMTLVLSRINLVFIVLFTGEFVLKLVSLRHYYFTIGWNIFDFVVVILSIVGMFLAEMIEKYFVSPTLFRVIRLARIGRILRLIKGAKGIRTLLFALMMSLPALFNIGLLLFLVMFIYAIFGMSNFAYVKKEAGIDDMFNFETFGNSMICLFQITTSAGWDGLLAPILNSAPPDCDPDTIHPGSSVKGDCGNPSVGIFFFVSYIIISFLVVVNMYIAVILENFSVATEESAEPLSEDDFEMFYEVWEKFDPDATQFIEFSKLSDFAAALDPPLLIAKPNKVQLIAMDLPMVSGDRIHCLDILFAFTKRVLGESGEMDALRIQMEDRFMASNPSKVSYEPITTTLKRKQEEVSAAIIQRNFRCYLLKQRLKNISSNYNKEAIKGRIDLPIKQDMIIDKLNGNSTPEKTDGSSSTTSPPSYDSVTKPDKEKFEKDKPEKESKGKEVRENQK
UniProt Q15858, whole entry, looked up: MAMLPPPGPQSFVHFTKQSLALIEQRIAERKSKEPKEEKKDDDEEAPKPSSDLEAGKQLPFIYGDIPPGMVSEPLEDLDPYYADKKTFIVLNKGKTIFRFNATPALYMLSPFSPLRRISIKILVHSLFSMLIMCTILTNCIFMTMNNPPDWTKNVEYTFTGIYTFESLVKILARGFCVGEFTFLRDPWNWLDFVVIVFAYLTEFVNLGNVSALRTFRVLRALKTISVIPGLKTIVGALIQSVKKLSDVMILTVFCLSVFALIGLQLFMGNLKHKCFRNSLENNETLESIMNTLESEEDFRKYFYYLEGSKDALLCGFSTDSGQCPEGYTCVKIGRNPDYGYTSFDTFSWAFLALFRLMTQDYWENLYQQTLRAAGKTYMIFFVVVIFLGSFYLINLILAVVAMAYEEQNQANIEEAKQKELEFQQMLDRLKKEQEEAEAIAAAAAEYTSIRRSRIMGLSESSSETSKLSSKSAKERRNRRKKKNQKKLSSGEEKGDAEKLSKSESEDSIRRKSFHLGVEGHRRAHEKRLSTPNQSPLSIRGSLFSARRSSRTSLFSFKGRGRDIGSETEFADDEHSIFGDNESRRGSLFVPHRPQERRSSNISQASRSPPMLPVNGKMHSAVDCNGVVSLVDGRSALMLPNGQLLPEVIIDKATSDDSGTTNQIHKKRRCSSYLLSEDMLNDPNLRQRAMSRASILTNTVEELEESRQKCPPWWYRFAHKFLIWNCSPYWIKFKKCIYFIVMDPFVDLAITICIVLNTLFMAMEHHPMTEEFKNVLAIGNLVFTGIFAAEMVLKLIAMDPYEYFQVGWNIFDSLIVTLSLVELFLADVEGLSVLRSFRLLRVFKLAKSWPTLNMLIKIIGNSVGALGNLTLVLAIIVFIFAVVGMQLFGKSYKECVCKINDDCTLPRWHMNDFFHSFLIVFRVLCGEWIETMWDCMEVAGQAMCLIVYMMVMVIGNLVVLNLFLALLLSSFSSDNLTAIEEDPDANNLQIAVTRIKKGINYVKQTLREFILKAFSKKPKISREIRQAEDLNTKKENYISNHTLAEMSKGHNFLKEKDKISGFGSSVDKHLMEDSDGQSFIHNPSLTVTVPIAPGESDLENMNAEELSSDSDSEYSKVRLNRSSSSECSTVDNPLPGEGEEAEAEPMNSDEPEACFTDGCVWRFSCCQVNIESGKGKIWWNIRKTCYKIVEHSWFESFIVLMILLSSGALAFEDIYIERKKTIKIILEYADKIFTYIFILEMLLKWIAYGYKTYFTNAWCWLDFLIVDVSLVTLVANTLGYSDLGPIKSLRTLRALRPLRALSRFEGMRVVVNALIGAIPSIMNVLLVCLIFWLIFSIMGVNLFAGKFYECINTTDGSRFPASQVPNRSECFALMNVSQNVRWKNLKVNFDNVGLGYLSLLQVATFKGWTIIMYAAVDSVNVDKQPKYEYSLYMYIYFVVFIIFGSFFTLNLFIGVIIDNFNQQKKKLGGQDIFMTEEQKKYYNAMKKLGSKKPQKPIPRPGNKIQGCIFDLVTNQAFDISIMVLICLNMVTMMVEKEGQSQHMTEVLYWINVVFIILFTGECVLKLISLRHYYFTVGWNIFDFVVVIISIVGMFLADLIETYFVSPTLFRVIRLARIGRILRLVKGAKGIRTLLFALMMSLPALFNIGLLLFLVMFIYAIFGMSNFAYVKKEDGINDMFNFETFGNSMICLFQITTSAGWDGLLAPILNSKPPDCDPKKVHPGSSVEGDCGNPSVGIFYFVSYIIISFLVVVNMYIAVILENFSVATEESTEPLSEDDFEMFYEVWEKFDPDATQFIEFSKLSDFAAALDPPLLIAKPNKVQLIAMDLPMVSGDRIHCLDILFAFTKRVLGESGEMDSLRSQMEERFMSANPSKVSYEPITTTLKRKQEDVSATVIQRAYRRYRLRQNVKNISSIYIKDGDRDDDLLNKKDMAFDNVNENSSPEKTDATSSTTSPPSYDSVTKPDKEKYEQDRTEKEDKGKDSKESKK

In paper PMC7599555 (Biomedicines, 2020):

Tests used:
hNaV1.2 = hNaV1.2 (Homo sapiens, UniProt Q99250); experiment: Automated whole-cell patch-clamp, hNaV1.2; conditions: hNaV1.2/β1 in HEK293, QPatch-16; 50 ms pulse to −20 mV from −90 mV every 20 s; 5 min incubation, 22 °C, pH 7.4, 0.1% BSA; mean ± SEM, n = 5
hNaV1.1 = hNaV1.1 (Homo sapiens, UniProt P35498); experiment: Automated whole-cell patch-clamp, hNaV1.1; conditions: hNaV1.1/β1 in HEK293, QPatch-16; 50 ms pulse to −20 mV from −90 mV every 20 s; 5 min incubation, 22 °C, pH 7.4, 0.1% BSA; mean ± SEM, n = 5
hNaV1.3 = hNaV1.3 (Homo sapiens, UniProt Q9NY46); experiment: Automated whole-cell patch-clamp, hNaV1.3; conditions: hNaV1.3/β1 in HEK293, QPatch-16; 50 ms pulse to −20 mV from −90 mV every 20 s; 5 min incubation, 22 °C, pH 7.4, 0.1% BSA; mean ± SEM, n = 3
hNaV1.6 = hNaV1.6 (Homo sapiens, UniProt Q9UQD0); experiment: Automated whole-cell patch-clamp, hNaV1.6; conditions: hNaV1.6/β1 in HEK293, QPatch-16; 50 ms pulse to −20 mV from −90 mV every 20 s; 5 min incubation, 22 °C, pH 7.4, 0.1% BSA; mean ± SEM, n = 4
hNaV1.7 = hNaV1.7 (Homo sapiens, UniProt Q15858); experiment: Automated whole-cell patch-clamp, hNaV1.7; conditions: hNaV1.7/β1 in HEK293, QPatch-16; 50 ms pulse to −20 mV from −90 mV every 20 s; 5 min incubation, 22 °C, pH 7.4, 0.1% BSA; mean ± SEM, n = 4

## C[C@@H]1NC(=O)[C@H](Cc2c[nH]cn2)NC(=O)[C@H](CC(=O)O)NC(=O)[C@H](CCCNC(=N)N)NC(=O)[C@@H]2CSSC[C@H](NC(=O)CNC(=O)[C@@H](N)CCCNC(=N)N)C(=O)N[C@H]3CSSC[C@H](NC(=O)[C@H](CCCNC(=N)N)NC1=O)C(=O)N[C@H](C(N)=O)CSSC[C@H](NC(=O)CNC(=O)CNC(=O)[C@H](CCCNC(=N)N)NC(=O)CNC(=O)[C@H](CC(N)=O)NC3=O)C(=O)N[C@@H](CO)C(=O)N[C@@H](CO)C(=O)N[C@@H](CCCNC(=N)N)C(=O)N[C@@H](Cc1c[nH]c3ccccc13)C(=O)N2
hNaV1.2
  IC50: 364 nM
hNaV1.1
  IC50: 132 nM
hNaV1.3
  IC50: 89.4 nM
hNaV1.6
  IC50: 125 nM
hNaV1.7
  IC50: 152 nM
